Data taken from ChEMBL document CHEMBL3988442, “University of Dundee, Small-Polar-MMV Screening Library” (2021).

A: 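Growth of Mycobacterium tuberculosis over 3 days (7H9 medium with glucose and tyloxapol); the read-out is not stated. Compounds at 50 µM. The record gives no direction; compounds that gave an IC50 in retests scored well above the rest, so higher reads as more growth inhibition. About 69,000 compounds were tested under these conditions; 1.1% (about 760) showed 50% or more at least once.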
B: 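Phenotypic screen: M. tuberculosis growth, cholesterol and DPPC medium, 4 days; the read-out is not stated. Tested at 50 µM. The record gives no direction; compounds that gave an IC50 in retests scored well above the rest, so higher reads as more growth inhibition. Size under these conditions: about 69,000 compounds, about 370 of them at 50% or above in at least one test.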

Each number is a percent effect as filed.
The record does not define 0% and 100%; most values in the screen are far below 50% and negative numbers occur (in some assays of this library far below -100).
Many other results are left out here, so strong results are more common than in the screen.
Two or more numbers in one place are separate tests of the same structure; such repeats can differ widely.
A dash means the value is not listed here; it may have been measured.

| # | compound | A | B |
|---|---|---|---|
| 1 | `O=C(c1cccs1)N1CC(Oc2ccccc2Cl)C1` | - | 47.33% and 49.13% |
| 2 | `CCNc1ccnc(N2Cc3cnc(CC(C)C)nc3C2)n1` | 23.02% | - |
| 3 | `CCC1c2ccsc2CCN1C(=O)NCc1ccccn1` (stereo unspecified) | 19.5% | - |
| 4 | `CC(C)(C)c1n[nH]cc1CNCC1CCN(CC(F)(F)F)C1.Cl` (stereo unspecified) | 12.44% and -4.013% | 10.52% |
| 5 | `COC(=O)c1cccc(CNC(=O)NCCC(F)(F)F)c1` | - | -0.7745% |
| 6 | `CCn1cc(NC(=O)c2cccc(OCC(F)(F)F)n2)cn1` | 14.39% | - |
| 7 | `CCNC(=O)CNS(=O)(=O)c1cc(Br)ccc1F` | -21.04% | -5.138% |
| 8 | `COc1ccc(F)c(CN(CCCn2ccnc2)Cc2ccc(C)s2)c1.O=C(O)CC(O)(CC(=O)O)C(=O)O` | -4.681% | - |
| 9 | `CCc1cc(N(C)Cc2cc[nH]n2)n2nc(C)c(C)c2n1` | 37.8% | 18.81% |
| 10 | `Cc1ccc(CN(CCCn2ccnc2)Cc2c[nH]nc2C(C)(C)C)s1.O=C(O)CC(O)(CC(=O)O)C(=O)O` | 15.22% | - |
| 11 | `Oc1nc(N2CCOCC2)nc2c1CCN(Cc1cccc(F)c1)CC2` | -11.45% | - |
| 12 | `OCc1ccc(-c2c(-c3ccccc3)ncn2CCN2CCOCC2)o1` | -16.64% | - |
| 13 | `COc1ccc(-c2nc(CN3CC(n4cccn4)C3)no2)cc1` | - | -3.33% |
| 14 | `[H][C@]12CN(C(=O)c3ccno3)CCN1C(=O)N(Cc1ccc(OC)cc1)C2` | 56.39% and -19.87% | - |
| 15 | `CCc1cc(C(=O)N2CCC(c3cc4ncccc4cn3)CC2)no1` | -34.91% | -32.83% |
| 16 | `COc1ccc(CNc2cccnc2-n2cccn2)cc1OC` | -3.492% and 11.43% | 8.488% |
| 17 | `O=C1CNc2ncnc(N3CCN(Cc4ccccc4)CC3)c2N1` | 10.84% | - |
| 18 | `Cc1ccc(CNC(=O)CCN2CCN(c3ccccn3)CC2)n1C` | - | -32.33% |
| 19 | `COc1ccc(-n2cc(CNC(=O)c3cscn3)nn2)cc1` | 17.58% and -2.622% | - |
| 20 | `COCCN(Cc1c(C)nn(C)c1C)C(=O)C1COc2ccccc2C1` (stereo unspecified) | - | 2.773% and 1.64% |
| 21 | `Cc1ccccc1-c1cc(C(=O)NCCN2CCCS2(=O)=O)[nH]n1` | 4.46% | - |
| 22 | `COc1ccc(CNc2n[nH]c(C)n2)cc1` | 11.9% | - |
| 23 | `Cc1cccc(C2(O)CCN(Cc3ccccc3N3CCCC3)CC2)c1` | 86.81% | 83.21% |
| 24 | `Cc1nc2c(Nc3cccc(C#N)c3)nc(N)nc2n1C` | 67.11% | 87.03% |
| 25 | `COc1cccc2c1OCC(C(=O)N1CCC(N3CCOC3=O)CC1)C2` (stereo unspecified) | 8.73% | - |
| 26 | `CC(C)N(CCSc1ncnc2[nH]ncc12)C(C)C` | 22.77% | -1.475% |
| 27 | `CCN(C)CC1CCN(c2ncc(Br)cn2)C1` (stereo unspecified) | -7.373% and 2.071% | -5.971% |
| 28 | `Cc1nc[nH]c1-c1nccn1-c1ccc(C(N)=O)c(N2CCCC2)c1` | - | -17.39% |
| 29 | `COc1cc(Cl)cc(CN2CCCC(N3CCOCC3)C2)c1OC` (stereo unspecified) | 5.154% | - |
| 30 | `CSC1=Nc2c(cnn2-c2ccc(Cl)cc2)C2=NCCCN12` | 37.43% | 45.46% |
| 31 | `COc1ccc(F)c(-c2cc(NCCO)nc(N)n2)c1` | -19.12% and 6.149% | -9.925% and -1.808% |
| 32 | `O=C(c1ccnn1COc1ccc(Cl)cc1)N1CCSCC1` | 9.147% and 9.725% | - |
| 33 | `COc1ccccc1C1CC(=O)Nc2nc(N3CCCCC3)sc21` (stereo unspecified) | 49.59% | - |
| 34 | `Cc1nc(CN2CCCC(N(C)c3cnc4ccccc4n3)C2)no1` (stereo unspecified) | 52.4% | - |
| 35 | `CSc1nc2ccsc2c(=O)n1CC(=O)NC1CCCCC1` | 20.43% | - |
| 36 | `Fc1cccc(-c2nnn3c2COC(CNCc2cccs2)C3)c1.O=C(O)C(F)(F)F` (stereo unspecified) | 2.575% and 10.66% | - |
| 37 | `Cc1cc2nc(SCC(=O)N3CCCC3)n(-c3ccccc3)c(=O)c2[nH]1` | -5.749% and 3.952% | - |
| 38 | `O=C(c1cc(C2CC2)[nH]n1)N1CCN(Cc2ccsc2)CC1` | 53.94% | - |
| 39 | `CC1(C)CN(C(=O)CC2CCC2)C[C@]1(C)O` | 50.29% | - |
| 40 | `Cc1c(Br)cccc1C(=O)Nc1cc(C(N)=O)n(C)c1` | -2.544% | 18.34% |
| 41 | `CN(CC1COc2ccccc2O1)C(=O)CCn1cncn1` (stereo unspecified) | 6.301% | -7.483% |
| 42 | `CCOC(=O)N1CCC(Oc2ccc(C(F)(F)F)cn2)CC1` | 34.55% | 35.52% |
| 43 | `CC(CCNC(=O)N1CCC1)N(C)C(=O)OC(C)(C)C` (stereo unspecified) | -7.332% and -3.823% | -0.394% |
| 44 | `CCOC(=O)CNC(=O)C1CN(C(=O)c2cnccn2)C1` | 1.837% and 27.12% | - |
| 45 | `O=C(c1csc(-c2ccco2)n1)N1CCOc2ncccc21` | -4.396% | - |
| 46 | `Cc1cc(NCCSc2nccn2C)n2nc(C)c(C)c2n1` | 39.1% | 5.629% and -0.161% |
| 47 | `Cc1oc(-c2ccccc2)nc1C(=O)NC1=NCCS1` | 18.86% and 7.202% | 11.67% |
| 48 | `NC(=O)C1CCN(Cc2ccc(S(=O)(=O)N3CCCC3)o2)CC1` | -13.51% and 110% | - |
| 49 | `O=C(NCCNc1ccc(C(F)(F)F)cn1)c1ccc(Cl)cc1F` | - | 51.83% |
| 50 | `Cc1cc(C)nc(N2CCCC(c3cccc(-n4ccnc4)n3)C2)n1` (stereo unspecified) | 54.58% | 55.39% |
| 51 | `CC(C)c1cccc(S(=O)(=O)NCCCN2CCC(O)CC2)c1` | 5.704% and 6.126% | - |
| 52 | `CCn1nc(C)c2c1cnn2CCNS(=O)(=O)CC` | -1.736% | - |
| 53 | `Cn1ccnc1-c1ccc(NCC2COCCO2)nn1` (stereo unspecified) | -11.31% | - |
| 54 | `Cc1cc(C)cc(C(=O)NCCCNc2ncccn2)c1` | -2.899% | - |
| 55 | `CN(Cc1ccncc1)C(=O)NCc1nnc2n1CCCCC2` | - | -22.05% |
| 56 | `Cc1nc(CCN2CCC(Oc3ccccc3F)CC2)c(C)s1` | 14.93% | - |
| 57 | `O[C@@H]1CN(c2nc3ccccc3s2)CC[C@H]1c1ccc2c(c1)OCO2` | 20.24% | 27.13% |
| 58 | `[H][C@@]12C[C@@H](Oc3cccnc3)CN1CCN(C(=O)c1cnccn1)C2` | - | 1.955% |
| 59 | `O=C(NCCN1CCOCC1)c1ccn(-c2ccc3ccccn23)n1.O=C(O)C(F)(F)F` | 14.96% | - |
| 60 | `[H][C@]12CC[C@]([H])(CN(Cc3ccc(Cn4cccn4)cc3)C1)N(CCC)C2` | 38.83% | -2.171% |
| 61 | `Cc1ccccc1CN1CCCN(S(=O)(=O)N(C)C2CCCCC2)CC1` | 21.29% and 68.47% | - |
| 62 | `CCc1noc(CN(C)C(=O)C(C)(C)Oc2cccc(Cl)c2)n1` | -30.19% | - |
| 63 | `COc1cc(CNC(=O)c2csc(Br)c2)ccn1` | 28.48% | - |
| 64 | `O=C(Nc1nc(-c2ccccc2)ns1)N1CCC(F)CC1` | - | -0.2147% and -19.67% |
| 65 | `CN(C)S(=O)(=O)N1CCC(Oc2cccnn2)CC1` | -0.1369% | -8.594% |
| 66 | `O=C(Cc1cccs1)NC1CCN(c2cccc(F)c2)CC1` | 5.533% and 3.271% | - |

Some entries from above, unchanged:

compound,A,B
Cc1nc2c(Nc3cccc(C#N)c3)nc(N)nc2n1C,67.11%,87.03%
Cc1oc(-c2ccccc2)nc1C(=O)NC1=NCCS1,18.86% and 7.202%,11.67%
CCn1nc(C)c2c1cnn2CCNS(=O)(=O)CC,-1.736%,-
Oc1nc(N2CCOCC2)nc2c1CCN(Cc1cccc(F)c1)CC2,-11.45%,-
COc1ccc(-c2nc(CN3CC(n4cccn4)C3)no2)cc1,-,-3.33%
Cn1ccnc1-c1ccc(NCC2COCCO2)nn1 (stereo unspecified),-11.31%,-
Cc1ccccc1-c1cc(C(=O)NCCN2CCCS2(=O)=O)[nH]n1,4.46%,-